Measurements from patent publication US20020192223A1 (priority 1989, published 2002).

Key:
Assay in all cases: Inhibition of protein synthesis ([3H]-leucine), Example 13
A2780 cells = type: cell-based, human; settings: A2780, ovarian Ca., BR96 antigen negative
KB cells = type: cell-based, human; settings: epidermoid Ca., BR96 antigen negative
L2987 cells = type: cell-based, human; settings: L2987, lung Ca., BR96 antigen positive
MCF-7 cells = type: cell-based, human
RCA cells = type: cell-based, human; settings: colon Ca., BR96 antigen positive
L929 cells = type: cell-based; settings: L929, mouse Fblst, BR96 antigen negative

With Pseudomonas exotoxin A the EC50 (A2780 cells) was 60 pM, the EC50 (KB cells) was 227 pM and the EC50 (L2987 cells) was 140 pM. For the same substance, the EC50 (MCF-7 cells; MCF-7, breast Ca., BR96 antigen positive) was 200 pM, the EC50 (MCF-7 cells; MCF-7, 1 hour incubation) was greater than 10000 pM and the EC50 (MCF-7 cells; MCF-7, 20 hours) was 200 pM. For the same substance, the EC50 (RCA cells) was 380 pM and the EC50 (L929 cells) was 3 pM.
